Results of unrelated studies side by side (data: NIAID ChemDB).

Common to all: tests in culture; species: Mycobacterium tuberculosis

An empty or dashed field is not shown. ECn: concentration that inhibits the pathogen or its effect by n%. A number after MIC or MFC names an inhibition level or a share of isolates. Two numbers with a dash give a range or band. Percent inhibition refers to the dose given; in toxicity tests it is the harm to the cells. Fold resistance has wild type as its base. MIC bound: limit read from a one-dose screen. Rows are shuffled and stem from different studies.

compound | strain | mutations | setting | cell line | measure | dose | method | result
CCn1cc(C(=O)O)c(=O)c2cc(F)c(N3CCN(CC(=O)c4ccc(Br)cc4)CC3)cc21 | H37Rv |  |  | VERO | EC50 |  |  | <6.25 µg/mL
O=C(N/N=C/c1ccccc1F)c1ccc(F)cc1 | H37Rv |  |  |  | MIC |  |  | >6.25 µg/mL
CCCCCCCC/C=C/CCCCCC1CCCC(C)N1 | KM-R |  |  |  | MIC |  |  | 6.3 µg/mL
COc1ccc(C(=S)NCc2ccccc2)c(O)c1 | My 331/88 |  |  |  | MIC |  |  | 4 µg/mL
CCn1cc(C(=O)O)c(=O)c2cc(F)c(N3CCN(C/C(=N/O)c4ccc(Br)cc4)CC3)nc21 | H37Rv |  |  |  | MIC |  |  | >6.25 µg/mL
O=C(N/N=C/c1ccc(Br)s1)c1ccc(F)cc1 | H37Rv |  |  |  | inhibition | 6.25 µg/mL |  | 98%
NNC(=O)c1n[nH]n(N)c1=S | H37Rv |  |  |  | MIC bound |  | BACTEC | ≤12.5 µg/mL
CCc1nc2ccccc2n1CCCCOc1ccc(C)c(Cl)c1 | H37Rv | Rv1339 V90M |  |  | fold resistance |  | turbidity / fluorescence | 0.6
O=C(OCCCOC(=O)c1cnccn1)c1cnccn1 |  | Pyrazinamide-resistant | pH 6.0 |  | MIC90 |  | resazurin | >347 µM
Cc1cc(NC(=O)c2ccc(N)cc2)ccc1N=Nc1ccc2c(O)c(N=Nc3ccc4cc(S(=O)(=O)O)ccc4c3)c(S(=O)(=O)O)cc2c1 | H37Rv |  |  |  | MIC bound |  | BACTEC | >12.5 µg/mL
CO[C@@]1(NC(=O)Cc2cccs2)C(=O)N2C(C(=O)O)=C(COC(N)=O)CS[C@@H]21 | Isolate 2 |  |  |  | MIC |  |  | >16 µg/mL
CCCCN(CCCC)N(CCC)C(=O)COc1cc2c(O)c3c(O)c(C)c4c(c13)C(=O)[C@@](C)(O/C=C/[C@H](OC)[C@@H](C)[C@@H](OC(C)=O)[C@H](C)[C@H](O)[C@H](C)[C@@H](O)[C@@H](C)/C=C/C=C(/C)C(=O)N2)O4 | H37Rv |  |  |  | MIC |  |  | 0.09 µg/mL
CO[C@H]1/C=C/O[C@@]2(C)Oc3c(C)c(O)c4c(=O)c(c5oc6cc(N7CCN(CC(C)C)CC7)cc(=O)c6nc5c4c3=C2O)NC(=O)/C(C)=C\C=C\[C@H](C)[C@H](O)[C@@H](C)[C@@H](O)[C@@H](C)[C@H](OC(C)=O)[C@@H]1C | TN635 |  |  |  | MIC |  |  | >32 µg/mL
CC(C)[C@H]1CO[C@]23CC[C@H](OC(c4ccc(Cl)cc4)c4ccc(Cl)cc4)C[C@H]2CCC(=O)N13 |  |  |  |  | MIC |  | resazurin | <0.5 µM
CCCCN(C(=O)COc1cc2c(O)c3c(O)c(C)c4c(c13)C(=O)[C@@](C)(O/C=C/[C@H](OC)[C@@H](C)[C@@H](OC(C)=O)[C@H](C)[C@H](O)[C@H](C)[C@@H](O)[C@@H](C)/C=C/C=C(/C)C(=O)N2)O4)N(CC)CC | H37Rv |  |  |  | MIC |  |  | 0.18 µg/mL
CC(C)[C@H]1CO[C@]23CC[C@H](N(Cc4ccc(C(F)(F)F)nc4)CC4CC4)C[C@H]2CCC(=O)N13 |  |  |  |  | MIC |  | resazurin | <0.5 µM
OC(c1cc2c(Cl)cc(Cl)cc2c2cc(C(F)(F)F)ccc12)C1CCCCN1 | H37Rv |  |  |  | MIC bound |  | resazurin | <6.25 µg/mL
O=C(CN1CCN(c2cc3c(cc2F)c(=O)c(C(=O)O)cn3C2CC2)CC1)c1ccc(Br)cc1 | H37Rv |  |  | VERO | EC50 |  |  | <6.25 µg/mL
C=C1C(=O)[C@@]23CC[C@H]4C(C)(CCC[C@@]4(C)C(=O)OC)[C@@H]2CC[C@]1(O)C3 | H37Rv |  |  |  | inhibition | 12.5 µg/mL | BACTEC | 98%
CC(C)(C)c1ccc(CNC(=O)c2c(O)cc(Cl)cc2Cl)cc1 | My 331/88 |  |  |  | MIC |  |  | 32 µg/mL
CN[C@@H]1[C@H](O[C@H]2[C@H](O[C@H]3[C@H](O)[C@@H](O)[C@H](N=C(N)N)[C@@H](O)[C@@H]3N=C(N)N)O[C@@H](C)[C@]2(O)C=O)O[C@@H](CO)[C@H](O)[C@H]1O | ATCC 35828 (pyrazinamide-resistant) |  |  |  | MIC90 |  |  | 0.3 µM
CCC1CN(c2c(F)cc3c(=O)c(C(=O)O)cn(C4CC4)c3c2OC)CCN1 | Isolate TN7829 |  |  |  | MIC |  |  | 0.1 µg/mL
Clc1ccc(-n2ncc(C(c3ccccc3)n3ccnc3)c2-c2ccccc2)c(Cl)c1 | ATCC 35820 (streptomycin-resistant) |  |  |  | MIC90 |  |  | 98.3 µM
Cc1cccc(OC(=O)c2ccc(N)cc2O)c1 | H37Rv (streptomycin-resistant) |  |  |  | MIC |  |  | 0.005 µg/mL
CC1(C)S[C@@H]2[C@H](NC(=O)[C@H](N)c3ccc(O)cc3)C(=O)N2[C@H]1C(=O)O | H37Ra |  |  |  | MIC |  |  | >16 µg/mL
CCc1nc2ccccc2n1CCCCSc1ccc(OC)cc1 | H37Rv |  |  |  | MIC99 |  | turbidity / fluorescence | 4.8 µM
CC(C)[C@H]1CO[C@]23CC[C@@H](N(CCCF)Cc4ccc(C(F)(F)F)cc4)C[C@H]2CCC(=O)N13 |  |  |  |  | MIC |  | resazurin | <0.5 µM
CCc1nc2ccccc2n1CCCCOc1ccc(Cl)cc1C | H37Rv | QcrB M342T |  |  | fold resistance |  | turbidity / fluorescence | >7.7
O=C(O)[C@H]1/C(=C/CO)O[C@@H]2CC(=O)N21 | Isolate 2 |  |  |  | MIC |  |  | >16 µg/mL
N#Cc1ccccc1NC(=O)C(=O)c1c(O)c2ccccc2oc1=O | H37Rv |  |  |  | MIC bound |  | BACTEC | >12.5 µg/mL
CC(C)(C)c1ccc(CNC(=O)c2ccccc2O)cc1 | My 331/88 |  |  |  | MIC |  |  | 16 µg/mL
CC(C)[C@H]1CO[C@]23CC[C@H](NCc4cc(C(F)(F)F)nc5cc(F)ccc45)C[C@H]2CCC(=O)N13 |  |  |  |  | MIC |  | resazurin | <0.5 µM
COC(=O)NCc1nc2cc(Cl)c(Cl)cc2[nH]1 | H37Rv |  |  |  | inhibition | 12.5 µg/mL | BACTEC | 3%
Oc1cc(Br)ccc1C(=S)NCc1ccc(Cl)c(Cl)c1 | My 331/88 |  |  |  | MIC |  |  | 4 µg/mL
NC(=O)c1c(Cl)nc(-c2cccc([N+](=O)[O-])c2)c([N+](=O)[O-])c1C(F)(F)F | H37Rv |  |  |  | MIC bound |  | BACTEC | >12.5 µg/mL
CCCN(CCC)C(=O)COc1cc2c(O)c3c(O)c(C)c4c(c13)C(=O)[C@@](C)(O/C=C/[C@H](OC)[C@@H](C)[C@@H](OC(C)=O)[C@H](C)[C@H](O)[C@H](C)[C@@H](O)[C@@H](C)/C=C/C=C(/C)C(=O)N2)O4 | H37Rv |  |  |  | MIC |  |  | 0.18 µg/mL
CO[C@H]1/C=C/O[C@@]2(C)Oc3c(C)c(O)c4c(O)c(c(/C=N/N5CCN(C)CC5)c(O)c4c3C2=O)NC(=O)/C(C)=C\C=C\[C@H](C)[C@H](O)[C@@H](C)[C@@H](O)[C@@H](C)[C@H](OC(C)=O)[C@@H]1C | 13684 |  |  |  | MIC |  |  | 0.1 µg/mL
CC(=O)/C(=C\c1ccc([N+](=O)[O-])o1)C(=O)CCN(C)C | H37Rv |  |  |  | MIC |  | BACTEC | ≥12.5 µg/mL
Fc1ccc(-c2c(C(c3ccccc3)n3ccnc3)cnn2-c2ccc(F)cc2)cc1 | ATCC 27294 |  |  |  | MIC50 |  |  | ≥100 µM
CC1CCCN(C(=S)S)C1.CC1CCCNC1 | RMP-R |  |  |  | MIC |  |  | 1.6 µg/mL
Clc1ccc(-c2c(C(c3ccccc3)n3ccnc3)cnn2-c2ccccc2)cc1 | ATCC 35820 (streptomycin-resistant) |  |  |  | MIC90 |  |  | ≥100 µM
CCn1cc(C(=O)O)c(=O)c2cc(F)c(N3CCN(C/C(=N/O)c4ccccc4)CC3)nc21 | H37Rv |  |  |  | MIC |  |  | >6.25 µg/mL
C=C(CN[C@@H]1CC[C@]23OC[C@H](C(C)C)N2C(=O)CC[C@@H]3C1)c1ccc(C(F)(F)F)cc1 |  |  |  |  | MIC |  | resazurin | 0.5–5 µM
NNC(=O)c1cc(Cl)ccn1 | H37Rv |  |  |  | MIC bound |  | BACTEC | >12.5 µg/mL
Cc1ccc(O)c(C(=O)NCc2ccccc2)c1 | My 331/88 |  |  |  | MIC |  |  | 62.5 µg/mL
COc1ccccc1OC(=O)c1ccc(N)cc1O | H37Rv |  |  |  | MIC |  |  | 0.0075 µg/mL
Cc1c(Cl)ccc2c1NC(=O)C2(O)CC(=O)c1ccccc1 | H37Rv |  |  |  | MIC bound |  | resazurin | >6.25 µg/mL
Fc1ccccc1-c1c(C(c2ccccc2)n2ccnc2)cnn1-c1ccccc1F | ATCC 27294 |  |  |  | MIC50 |  |  | 47.2 µM
CCc1nc2ccc(C)cc2n1CCCSc1ccc(OC)cc1 | H37Rv | WT |  |  | MIC90 |  | turbidity / fluorescence | 4.6 µM
CO[C@H]1/C=C/O[C@@]2(C)Oc3c(C)c(O)c4c(O)c(c(/C=N/N5CCN(C)CC5)c(O)c4c3C2=O)NC(=O)/C(C)=C\C=C\[C@H](C)[C@H](O)[C@@H](C)[C@@H](O)[C@@H](C)[C@H](OC(C)=O)[C@@H]1C |  | Pyrazinamide-resistant | pH 6.6 |  | MIC90 |  | resazurin | >0.05 µM
O=C(N/N=C/c1ccc(F)cc1)c1ccc(F)cc1 | H37Rv |  |  |  | EC50 |  |  | >6.25 µg/mL
CC(C)[C@H]1CO[C@]23CC[C@@H](N(CCCCF)Cc4ccc(C(F)(F)F)cc4)C[C@H]2CCC(=O)N13 |  |  |  |  | MIC |  | resazurin | 0.5–5 µM
CCOC(=O)C1=C(C(=O)c2ccc(OC)cc2)C(c2cccc([N+](=O)[O-])c2)C(C(=O)c2ccc(OC)cc2)=C(C(=O)OCC)N1 | H37Rv |  |  |  | inhibition | 12.5 µg/mL | BACTEC | 17%
CO[C@H]1/C=C/O[C@@]2(C)Oc3c(C)c(O)c4c(O)c(c(/C=N/N5CCN(C)CC5)c(O)c4c3C2=O)NC(=O)/C(C)=C\C=C\[C@H](C)[C@H](O)[C@@H](C)[C@@H](O)[C@@H](C)[C@H](OC(C)=O)[C@@H]1C | Isolate TN6515 |  |  |  | MIC |  |  | 0.02 µg/mL
Cc1cc(COC(=O)c2ccc(N)cc2O)ccc1C(C)C | H37Rv |  |  |  | MIC |  |  | 0.01 µg/mL
NC(=O)c1cnccn1 |  | Pyrazinamide-resistant | pH 6.6 |  | MIC90 |  | resazurin | >100 µM
CO[C@H]1/C=C/O[C@@]2(C)Oc3c(C)c(O)c4c(O)c(c(/C=N/N5CCN(C)CC5)c(O)c4c3C2=O)NC(=O)/C(C)=C\C=C\[C@H](C)[C@H](O)[C@@H](C)[C@@H](O)[C@@H](C)[C@H](OC(C)=O)[C@@H]1C | ATCC 35822 (isoniazid-resistant) |  |  |  | MIC90 |  |  | 1 µM
C[C@@H]1CN(c2c(F)c(N)c3c(=O)c(C(=O)O)cn(C4CC4)c3c2F)C[C@H](C)N1 | 900233 |  |  |  | MIC |  |  | 0.1 µg/mL
CO[C@H]1/C=C/O[C@@]2(C)Oc3c(C)c(O)c4c(O)c(cc(OCC(=O)N(C)N5CCCCC5)c4c3C2=O)NC(=O)/C(C)=C\C=C\[C@H](C)[C@H](O)[C@@H](C)[C@@H](O)[C@@H](C)[C@H](OC(C)=O)[C@@H]1C | H37Rv |  |  |  | MIC |  |  | 0.09 µg/mL
CC(=O)N1CCN(CCCCN2c3ccccc3Sc3cc(N=[N+]=[N-])ccc32)CC1 | H37Rv |  |  |  | MIC bound |  | resazurin | >6.25 µg/mL
Oc1ccccc1C(=S)NCc1ccc(Cl)c(Cl)c1 | My 331/88 |  |  |  | MIC |  |  | 0.49 µg/mL
COC(=O)[C@@H]1CCCN1C(=O)CNC(=O)OC(C)(C)C | H37Rv |  |  |  | MIC bound |  | resazurin | >6.25 µg/mL
Fc1ccc(-c2c(C(c3ccccc3)n3ccnc3)cnn2-c2ccc(F)cc2F)cc1 | ATCC 35820 (streptomycin-resistant) |  |  |  | MIC90 |  |  | ≥100 µM
Nc1nc(N)c(N=Nc2ccc(S(N)(=O)=O)cc2)c(N)n1 | H37Rv |  |  |  | inhibition | 12.5 µg/mL | BACTEC | 10%
O=C(OCCCl)c1cnccn1 |  | Pyrazinamide-resistant | pH 6.6 |  | MIC90 |  | resazurin | >536 µM
Clc1ccc(-c2c(C(c3ccccc3)n3ccnc3)cnn2-c2ccc(Cl)cc2)cc1 | ATCC 35820 (streptomycin-resistant) |  |  |  | MIC90 |  |  | ≥100 µM
Oc1cc(Br)cc(Br)c1C(=S)NCc1ccc(C(F)(F)F)cc1 | My 331/88 |  |  |  | MIC |  |  | 32 µg/mL
C[C@@H]1C[C@@H]2c3cccc4c3c(cn4CO)C[C@H]2N(C)C1 | H37Rv |  |  |  | inhibition | 12.5 µg/mL | BACTEC | 5%
CCc1nc2ccc(C)cc2n1CCCNc1ccccc1 | H37Rv | QcrB M342T |  |  | MIC90 |  | turbidity / fluorescence | 4.1 µM
CCOC(=O)c1cc(C(=O)c2ccc(F)cc2)n2ccc(C(=O)OC(C)C)cc12 |  | XDR-MTB |  |  | MIC |  | resazurin | 32 µg/mL
CCOc1ccc2ccccc2c1C(=O)N[C@@H]1C(=O)N2[C@@H]1SC(C)(C)[C@@H]2C(=O)O | Isolate 1 |  |  |  | MIC |  |  | >16 µg/mL
CC(=O)N/C(=C\c1ccc(/C=C(/NC(C)=O)C2=NC3C(=O)c4ccccc4C(=O)C3N2)cc1)C1=NC2C(=O)c3ccccc3C(=O)C2N1 | H37Rv |  |  |  | MIC |  | BACTEC | 12.5 µg/mL
CCc1nc2ccccc2n1CCCCOc1ccc(C)c(C)c1 | H37Rv | WT |  |  | MIC90 |  | turbidity / fluorescence | 5 µM
O=P(O)(O)CN1CCNCCN(CP(=O)(O)O)CCNCC1 | H37Rv |  |  |  | MIC bound |  | resazurin | >6.25 µg/mL
C=C/C(C)=C/[C@@]1(C)SC(=O)C(C)=C1O | PMH29:kasA |  |  |  | MIC |  |  | 30 µg/mL
CCCc1c(O)nc(Nc2nc3ccccc3[nH]2)[nH]c1=O | H37Rv |  |  |  | inhibition | 6.25 µg/mL | BACTEC | 49%
CN(C)c1ccc(/C=C/C/C=N/NC(=O)c2ccc(F)cc2)cc1 | H37Rv |  |  |  | EC50 |  |  | >6.25 µg/mL